## Results of single-concentration screens

Source: ChEMBL document CHEMBL3988442, “University of Dundee, Small-Polar-MMV Screening Library” (2021).

Mtb cholesterol medium: 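Growth of Mycobacterium tuberculosis over 4 days (cholesterol / DPPC medium with tyloxapol); the read-out is not stated. Concentration: 500 µM. Direction is inferred from retests: higher values go with more growth inhibition. About 18,000 compounds were tested under these conditions; 5% (about 900) showed 50% or more at least once.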
Mtb glucose medium: 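Phenotypic screen: M. tuberculosis growth, glucose 7H9 medium, 3 days; the read-out is not stated. Tested at 500 µM. Higher reads as more growth inhibition (inferred: compounds with an IC50 in retests scored well above the rest). Size under these conditions: about 18,000 compounds, about 1,400 of them at 50% or above in at least one test.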

The filed quantity is “Percent Effect” (%).
The record does not define 0% and 100%; most values in the screen are far below 50% and negative numbers occur (in some assays of this library far below -100).
The entries come from a sample that favours strong results.
A dash means the value is not listed here; it may have been measured.

SMILES | Mtb cholesterol medium | Mtb glucose medium
COC(=O)c1sccc1NC(=O)c1ccnn1C | - | -5.245
Cc1noc(Cn2cc(S(=O)(=O)N(C)C)ccc2=O)n1 | - | 9.51
COC(=O)CCCC(=O)Nc1ncccc1Cl | - | -7.308
CN(C(=O)c1ccncc1)c1ncccc1Br | - | 0.8151
CC1NCCCNC1=O (stereo not shown) | - | -2.186
OC1(c2scnc2Br)CCNCC1 | - | -3.576
O=C(c1cc(Cl)c[nH]1)N1CCOC(c2cccs2)C1 (stereo not shown) | 68.05 | 68.32
Cc1nccc(NC(=O)C2CN(C)CCO2)c1Cl (stereo not shown) | -10.95 | -7.12
NC(=O)CN1CCC(c2nc(C3CCOC3)no2)CC1 (stereo not shown) | 6.379 | -
CCNC(=O)c1cc(N2CCC(O)CC2)ccn1 | 14.16 | 14.96
CNC(=O)C1CCN(S(C)(=O)=O)c2cc(C)ccc2O1 (stereo not shown) | - | 10.8
c1nc2c([nH]1)C1(CCOCC1)NCC2 | - | 6.373
COc1ccnc(C(=O)N(C)Cc2cnccn2)c1 | 7.225 | 9.012
CCC(C)NC(=O)Nc1cccc(C(=O)NC)c1 (stereo not shown) | - | -2.738
COCCn1cncc1CNC(=O)c1ccc(C)s1 | -2.404 | -
Cc1nnc(NC(=O)NCC2CCNCC2)s1 | -10.63 | -
COC(=O)c1cc(C)sc1N1C(=O)C=CC1=O | - | 4.179
COCc1nc(C(=O)NC2CCN(C)C2=O)cs1 (stereo not shown) | - | 4.781
Cn1c(=O)c2[nH]c(N3CCNCC3)nc2n(C)c1=O | 10.61 | -
Cc1c(C(=O)N2CCNC(=O)C2)oc2ccc(Cl)cc12 | 30.11 | 47.69
O=C(c1ccccc1)N1CCCNCC1 | - | 2.937
CC(=O)N1CCOc2ccccc21 | -12.48 | -
O=C1CCCCNC1 | -1.086 | -
CC(C)(C)OC(=O)NCC1CC(C(N)=O)=NO1 (stereo not shown) | -6.247 | -
O=S(=O)(CCCF)NCc1ccncc1 | - | 5
NC(=O)[C@@H]1Cc2ccccc2CN1CCn1cccn1 | 5.918 | -
O=C(CN1CCc2sccc2C1)N1CCNC1=O | - | 6.999
CC(=O)NC1(c2nc(C)cs2)CCNC1 (stereo not shown) | - | -5.06
CN1C[C@@H]2CN(C(=O)c3cc(C4CC4)on3)C[C@@H]2C1 | - | 10.55
COCCCN1CCC(CNc2ncncn2)C1 (stereo not shown) | 11.9 | -
Cc1nc(CNc2ccn(-c3ncccc3Cl)n2)no1 | - | -8.727
CCC(=O)NC1=NCCS1 | -14.82 | -
CC1Oc2ccc(NC(=O)c3ccco3)cc2NC1=O (stereo not shown) | 28.05 | -
CN(C)C(CN)C1CCCCC1 (stereo not shown) | - | 67.06
CSc1ncc(CN2CCC(NC(C)=O)C2)cn1 (stereo not shown) | 3.767 | -
Cn1nccc1C1(O)CCOCC1 | - | 3.598
COCCN1CCN(C(=O)C(C)C)CC1 | - | 9.697
CC(C)[C@@H]1CCO[C@@H]1CN | - | 8.198
CN1CCN(C(=O)C2CCC2)c2ccccc2C1 | - | -2.667
O=S(=O)(NCCO)c1ccc2ccccc2c1 | 7.78 | 9.139
Cc1cc(C)n2nc(C(=O)N3CCSCC3)nc2n1 | - | 3.503
COc1ccc(C(=O)N2CCNCC2)c(OC)c1 | - | -5.936
O=C(NCC(O)C1CCCCC1)[C@@H](O)c1ccccc1 (stereo partly shown) | - | 53.96
CCC(CO)NC(=O)C1(Cc2ccccc2)CC1 (stereo not shown) | 18.83 | -
CC(C)c1nc(Cn2ncn(C)c2=O)cs1 | -2.57 | 3.926
COc1ccc2c(c1)NCC(C)O2 (stereo not shown) | 44.95 | 66.67
CCc1nnsc1C(=O)N1CCN(c2nccs2)CC1 | - | -3.64
NC(=O)CCNC(=O)CCOc1ccccc1 | -13.61 | -
Cc1noc(C)c1CNC(=O)N(C)Cc1ccncc1 | - | -1.427
CCS(=O)(=O)N1CCN(c2ccc(C)nn2)CC1 | -3.241 | -
CNC(=O)NCc1cccnc1OC1CCCC1 | -28.02 | -
CN(Cc1ccco1)CC(O)COCc1cccs1 (stereo not shown) | 80.32 | 68.65
COC1CCN(Cc2cccc(OCC(N)=O)c2)C1 (stereo not shown) | 11.44 | 17.01
CCC(=O)Nc1ccc(C)c(-n2cnnn2)c1 | - | 7.166
O=C(OCC(F)(F)F)c1cccnc1 | -23.95 | -10.78
O=C(Nc1ccccc1F)c1ncccn1 | - | -8.539
CCC(O)Cc1ccncc1 (stereo not shown) | - | 0.8217
COCCN(C)CCCNC(=O)c1cc(C2CC2)[nH]n1 | 5.846 | -
OCCC1CCN(Cc2cccnc2)C1 (stereo not shown) | -12.88 | -
CC(C)CCN1CC(C(=O)N2CCCC2)CC1=O (stereo not shown) | - | 22.49
CCC(CNS(=O)(=O)c1cnn(C)c1)N1CCCC1 (stereo not shown) | - | -1.277
CCCS(=O)(=O)NCc1ccc(S(N)(=O)=O)cc1 | -12.37 | -
CCCNC(=O)C1=NN(C)C(=O)CC1 | - | 5.881
CC(C)NC(=O)c1cccc(C(N)=O)c1 | - | -2.184
Cn1c(CO)cnc1S(=O)(=O)Cc1ccc(F)cc1 | - | -0.8459
COCC(=O)N1CCC(Nc2cncc(Br)c2)CC1 | - | -8.039
COCC(C)(NC(=O)CCc1ccccc1Cl)C(N)=O (stereo not shown) | - | 20.41
CC(C)OCC1CCN(C(=O)c2cccc(=O)[nH]2)CC1 | 4.71 | -
O=C(CCc1ccoc1)Nc1cnccn1 | - | 48.76
c1cc2c(cc1CN1CCNCC1)OCCO2 | 10.5 | -
CC(C)CC(O)CNC(=O)c1ccccc1O (stereo not shown) | - | -1.14
O=C(C1CCS(=O)(=O)C1)N1CCc2ccccc2C1 (stereo not shown) | - | 5.799
COC[C@H]1CC[C@H]1N | - | 8.302
CSCC[C@H](NC(=O)C1CC1)c1nc2ccccc2[nH]1 | - | 6.215
O=C(NCCNC(=O)c1ccccc1)Nc1nncs1 | - | 7.748
CC1CN(S(=O)(=O)CCCS(=O)(=O)N(C)C)CCN1 (stereo not shown) | -5.679 | -
CCOc1ccc(C(=O)N2CCC(N)CC2)cc1 | - | 11.09
Cc1cc(C(=O)NCc2ncnn2C)c(C)cc1Br | -2.349 | 1.559

Once more, the final 7:

{"smiles": "O=C(C1CCS(=O)(=O)C1)N1CCc2ccccc2C1", "stereo": "stereo not shown", "Mtb glucose medium": 5.799}
{"smiles": "COC[C@H]1CC[C@H]1N", "Mtb glucose medium": 8.302}
{"smiles": "CSCC[C@H](NC(=O)C1CC1)c1nc2ccccc2[nH]1", "Mtb glucose medium": 6.215}
{"smiles": "O=C(NCCNC(=O)c1ccccc1)Nc1nncs1", "Mtb glucose medium": 7.748}
{"smiles": "CC1CN(S(=O)(=O)CCCS(=O)(=O)N(C)C)CCN1", "stereo": "stereo not shown", "Mtb cholesterol medium": -5.679}
{"smiles": "CCOc1ccc(C(=O)N2CCC(N)CC2)cc1", "Mtb glucose medium": 11.09}
{"smiles": "Cc1cc(C(=O)NCc2ncnn2C)c(C)cc1Br", "Mtb cholesterol medium": -2.349, "Mtb glucose medium": 1.559}